Pooled drug test results. Numbers come from NIAID ChemDB, via PubChem.

All rows: target-level tests; species: HIV-1; protein: Reverse transcriptase

Blank or dashed fields: not listed here. Two numbers with a dash give a range or band. Fold resistance has wild type as its base. Conditions beyond the fields shown may differ between rows. ICn is the concentration giving n% inhibition.

SMILES,strain,mutations,read by,endpoint,value
CCN1c2ncc(CCOc3ccc(NC(=O)Nc4ccc(C(=O)O)cc4)cc3C)cc2C(=O)N(C)c2cccnc21,IIIB,,nucleotide incorporation / radiometric,IC50,<0.05 µM
CCN1c2ncc(CCOc3ccc(C(=O)O)c4c3CCN(C(=O)N(C)C)C4)cc2C(=O)N(C)c2cccnc21,,RT-Y188L,nucleotide incorporation / radiometric,fold resistance,1–10
CCN1c2ncc(CCOc3ccc(-c4ccc(CC(=O)O)cc4)cc3)cc2C(=O)N(C)c2cccnc21,IIIB,RT-K103N Y181C,nucleotide incorporation / radiometric,IC50,0.05–0.1 µM
CC(C)(C#Cc1ccc(NC(=O)CSc2nnnn2-c2ccc(C3CC3)cc2Cl)c(Cl)c1)NC(=O)CN1CCC(O)CC1,,RT-K103 Y181C,PicoGreen / fluorescence,IC50,<1 µM
Cc1nnc2c3ccccc3c(N3CCc4cccnc4C3)nn12,IIIB,,RT activity / fluorescence,IC90,8.37 µM
CCN1c2ncc(CCOc3ccc(C(=O)O)c4c3CCCC4)cc2C(=O)N(C)c2ccc(OC)nc21,,RT-K103N Y181C,nucleotide incorporation / radiometric,IC50,0.1–1 µM
CC(C)(C)c1ccc(-n2nnnc2SCC(=O)Nc2ccc(OCC(=O)Nc3ccc(O)cc3)cc2Cl)c(Cl)c1,WT,,PicoGreen / fluorescence,IC50,<1 µM
CCN1c2ncc(CCOc3ccc(-c4ccc(C)cc4)cc3C)cc2C(=O)N(C)c2cccnc21,IIIB,RT-K103N Y181C,nucleotide incorporation / radiometric,IC50,<0.05 µM
FC(F)(F)c1nnc2c3ccccc3c(N3CCc4ccccc4C3)nn12,KER2008,,RT activity / fluorescence,IC90,1.51 µM
CC(C)(C)c1ccc(-n2nnnc2SCC(=O)Nc2ccc(C(=O)NCCC(=O)O)cc2Cl)c(Cl)c1,,RT-K103 Y181C,PicoGreen / fluorescence,IC50,<1 µM
COc1cccc(-c2nnc3c4ccccc4c(N4CCc5ccccc5C4)nn23)c1,98US_MSC5016,,RT activity / fluorescence,IC90,>100 µM
CC(C)(C#Cc1ccc(NC(=O)CSc2nnnn2-c2ccc(C3CC3)cc2Cl)c(Cl)c1)NCc1nccs1,WT,,PicoGreen / fluorescence,IC50,<1 µM
CCN1c2ncc(CCOc3ccc(-c4ccc(F)c(C(=O)O)c4)cc3)cc2C(=O)N(C)c2cccnc21,IIIB,RT-K103N Y181C,nucleotide incorporation / radiometric,fold resistance,>2
CC(C)(C#Cc1ccc(NC(=O)CSc2nnnn2-c2ccc(C(C)(C)C)cc2Cl)c(Cl)c1)OCC(=O)NCCC(=O)O,WT,,PicoGreen / fluorescence,IC50,<1 µM
CCN1c2ncc(CCOc3ccc(CCC(=O)O)c4c3CCCC4)cc2C(=O)N(C)c2ccc(Cl)nc21,,RT-Y188L,nucleotide incorporation / radiometric,IC50,0.1–1 µM
CCN1c2ncc(CCOc3ccc(-c4cccc(C(=O)O)c4)cc3)cc2C(=O)N(C)c2cccnc21,IIIB,RT-K103N Y181C,nucleotide incorporation / radiometric,IC50,>0.1 µM
COC(C)(C)C#Cc1ccc(NC(=O)CSc2nnnn2-c2ccc(C3CC3)cc2Cl)c(Cl)c1,WT,,PicoGreen / fluorescence,IC50,<1 µM
CCN1c2ncc(CCOc3ccc(-c4ccc(CC(=O)O)cc4)cc3CO)cc2C(=O)N(C)c2cccnc21,IIIB,,nucleotide incorporation / radiometric,IC50,<0.05 µM
CCN1c2ncc(CCOc3ccc4cc(CC(=O)NN)ccc4c3)cc2C(=O)N(C)c2cccnc21,,RT-Y188L,nucleotide incorporation / radiometric,IC50,0.1–1 µM
Cc1ccc(-c2cn[nH]c2OCC(=O)Nc2ccc(-c3ccc(CC(=O)O)cc3)cc2Cl)c(Cl)c1,WT,,PicoGreen / fluorescence,IC50,<1 µM
CCN1c2ncc(CCOc3ccc(-c4ccc(CC(=O)O)cc4OC)cc3C)cc2C(=O)N(C)c2cccnc21,IIIB,RT-K103N Y181C,nucleotide incorporation / radiometric,fold resistance,1
CC(C)(O)C#Cc1ccc(NC(=O)CSc2nnnn2-c2cc3c(cc2Cl)CCC3)c(Cl)c1,,RT-K103 Y181C,PicoGreen / fluorescence,IC50,<1 µM
c1ccc(-c2nnc3c4ccccc4c(N4CCc5ccccc5C4)nn23)cc1,KER2008,,RT activity / fluorescence,IC90,>100 µM
CCN1c2ncc(CCOc3ccc(C(=O)O)c4c3CCN(C(C)=O)C4)cc2C(=O)N(C)c2cccnc21,,RT-V106A,nucleotide incorporation / radiometric,IC50,>1 µM
Nc1ccc2c(c1)CN(c1nn3c(-c4cccs4)nnc3c3ccccc13)CC2,KER2008,,RT activity / fluorescence,IC90,7.75 µM
CCN1c2ncccc2NC(=O)c2cc(CCOc3ccc(-c4ccc(CC(=O)O)cc4)cc3C)cnc21,IIIB,RT-K103N Y181C,nucleotide incorporation / radiometric,fold resistance,>1
CC(C)CCC(=O)Nc1ccc(NC(=O)CSc2nnnn2-c2ccc(C(C)(C)C)cc2Cl)c(Cl)c1,,RT-K103 Y181C,PicoGreen / fluorescence,IC50,<1 µM
c1ccc2c(c1)CCN(c1nn3c(C4CC4)nnc3c3ccccc13)C2,98US_MSC5016,,RT activity / fluorescence,IC90,4.04 µM

3 of the rows above, restated:

SMILES	strain	mutations	read by	endpoint	value
CCN1c2ncc(CCOc3ccc(CCC(=O)O)c4c3CCCC4)cc2C(=O)N(C)c2ccc(Cl)nc21		RT-Y188L	nucleotide incorporation / radiometric	IC50	0.1–1 µM
CCN1c2ncc(CCOc3ccc(-c4ccc(CC(=O)O)cc4)cc3CO)cc2C(=O)N(C)c2cccnc21	IIIB		nucleotide incorporation / radiometric	IC50	<0.05 µM
Cc1ccc(-c2cn[nH]c2OCC(=O)Nc2ccc(-c3ccc(CC(=O)O)cc3)cc2Cl)c(Cl)c1	WT		PicoGreen / fluorescence	IC50	<1 µM